# Primary screen of a compound library

From ChEMBL document CHEMBL3988442, “University of Dundee, Small-Polar-MMV Screening Library” (2021).

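Whole-cell growth test on Mycobacterium tuberculosis, read after 4 days in a medium based on cholesterol and the lipid DPPC; the read-out is not stated. Concentration: 50 µM. Higher reads as more growth inhibition (inferred: compounds with an IC50 in retests scored well above the rest). Size under these conditions: about 69,000 compounds, about 370 of them at 50% or above in at least one test.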

Each number is a percent effect as filed. How 0% and 100% were set is not recorded. Most values in the screen are low, and negative values occur. This is part of a subset picked to be rich in strong results. Two or more numbers in one place are separate tests of the same structure; such repeats can differ widely.

compound: c1cnc(-c2nc(C3CCOC3)no2)cn1 (stereo not shown)
effect: 35.25% and 80.94%

compound: CC(NC(=O)CNc1cc2c(cc1Cl)NC(=O)CO2)c1ccco1 (stereo not shown)
effect: -33.75%

compound: Cc1nc(C2CCCN(C(=O)CCCOc3cccc(F)c3)C2)no1 (stereo not shown)
effect: 8.34% and -6.066%

compound: CCOc1ccccc1CN1CCc2nc3ccsc3c(=O)n2CC1.Cl
effect: -2.728%

compound: O=C(NCCN1CCOCC1)c1ccc(-c2ccccc2)[nH]c1=O
effect: -16.02%

compound: Cc1nccn1CCCn1cncc1-c1ccc2c(c1)CC(C)N2C.Cl (stereo not shown)
effect: 11.78% and 20.87%

compound: COc1ccc(C[C@H]2CNCC[C@@H]2OCC2CC2)cc1
effect: 5.063%

compound: CCNc1nnc(SCc2nnc(C(C)(C)C)o2)s1
effect: -32.5%

compound: COc1ccc(OC)c(CN2CCc3nc4ccsc4c(=O)n3CC2)c1.Cl
effect: 6.048%

compound: O=C(NCCn1ccnc1)c1ccn(-c2ccc(F)cc2)n1
effect: -9.786%

compound: OCc1ccc(CN(CCCn2ccnc2)Cc2ccncc2)o1
effect: 8.256%

compound: Cc1ccnc(N2Cc3cnn(Cc4ccc(F)cc4)c3C2)n1
effect: 13.16% and 18.82%

compound: CCc1[nH]c2c(CNc3cnccn3)cc(F)cc2c1C
effect: 43.64%

compound: O=C(NCCc1[nH]nc2c1CCCC2)C1CCCN(Cc2ccco2)C1 (stereo not shown)
effect: 2.908% and 4.409%

compound: O=C(NCCCN1CCOCC1)c1ccc(-c2ccccc2)[nH]c1=O
effect: -23.28%

compound: COC(=O)c1cccc(C(=O)N(C)Cc2cccc(F)c2)c1
effect: -10.12%

compound: COc1cc(CNCCn2cc(C)cn2)cc2c1OCCO2
effect: 13.04%

compound: Cc1cc2nc(-c3ccccc3)cc(NCC3CCS(=O)(=O)C3)n2n1 (stereo not shown)
effect: -33.37%

compound: [H][C@@]12CCCO[C@]1([H])[C@H](NC(=O)CC1CC1)CN(Cc1ccoc1)C2
effect: 98.22%

compound: OCC(O)CSCc1ccc(Cl)cc1Cl (stereo not shown)
effect: 12.05%

compound: Clc1ccc(CNc2ccc(Cl)cn2)cc1
effect: -12.6%

compound: CC(C)Cn1cncc1CNC(=O)c1cccc(CC2CCNCC2)c1
effect: 4.075% and -11.44%

compound: CC(C)CCC(=O)NCCc1ccn(-c2ccccc2)n1
effect: 36.24%

compound: CC(CNS(C)(=O)=O)c1ccc(F)c(F)c1 (stereo not shown)
effect: -4.576%

compound: N#Cc1cccc(N2CCC3(CC2)Nc2ccccc2NC3=O)n1
effect: -1.71%

compound: Cc1nc(-c2ccc(NCCc3ccc(O)cc3)nc2)[nH]c(=O)c1C
effect: 59.11%

compound: CC(O)CN1CCC(CNCc2c[nH]nc2C(C)(C)C)CC1 (stereo not shown)
effect: 55.97%

compound: CCc1c(C(=O)NCC(=O)OCC2CC2)cnn1-c1ccc(C)cc1
effect: 58.4%

compound: Fc1ccc(C(NCc2nnc(C3CC3)o2)C2CCC2)cc1 (stereo not shown)
effect: 43.62%

compound: Cc1nnnn1-c1cc(NCc2cc(C#N)ccc2F)ccc1F
effect: 3.626%

compound: CCCc1ccc(C(=O)N2CCn3c(nnc3C(C)C)C2)cc1
effect: 11.98%

compound: CCSc1nc2ccccc2c(=O)n1OCC(=O)OC
effect: 29.21%

compound: CC(C(=O)O)N1CCc2onc(-c3ccc(F)c(F)c3)c2C1 (stereo not shown)
effect: -16.54%

The first 2 entries again:

| compound | effect |
|---|---|
| `c1cnc(-c2nc(C3CCOC3)no2)cn1` (stereo not shown) | 35.25% and 80.94% |
| `CC(NC(=O)CNc1cc2c(cc1Cl)NC(=O)CO2)c1ccco1` (stereo not shown) | -33.75% |